Measured values from ChEMBL document CHEMBL1275243 (2010).

Columns and labels:
Bacillus anthracis [1] = test: Antimicrobial activity against Bacillus anthracis 240 assessed as change in fluorescence threshold cycle at 0.5 ug/ml after 4 hrs by real-time PCR viability assay relative to control
Bacillus anthracis [2] = test: Antimicrobial activity against Bacillus anthracis A03768 assessed as change in fluorescence threshold cycle at 0.12 ug/ml after 4 hrs by real-time PCR viability assay relative to control
Bacillus anthracis [3] = test: Antimicrobial activity against Bacillus anthracis A0102 assessed as change in fluorescence threshold cycle at 0.06 ug/ml after 4 hrs by real-time PCR viability assay relative to control
Bacillus anthracis [4] = test: Antimicrobial activity against Bacillus anthracis A0488 assessed as change in fluorescence threshold cycle at 4 ug/ml after 4 hrs by real-time PCR viability assay relative to control
Bacillus anthracis [5] = test: Antimicrobial activity against Bacillus anthracis A0264 assessed as change in fluorescence threshold cycle at 16 ug/ml after 4 hrs by real-time PCR viability assay relative to control
Bacillus anthracis [6] = test: Antimicrobial activity against Bacillus anthracis A0462 assessed as change in fluorescence threshold cycle at 1 ug/ml after 4 hrs by real-time PCR viability assay relative to control
Bacillus anthracis [7] = test: Antimicrobial activity against Bacillus anthracis A0193 assessed as change in fluorescence threshold cycle at 0.25 ug/ml after 4 hrs by real-time PCR viability assay relative to control
Bacillus anthracis [8] = test: Antimicrobial activity against Bacillus anthracis A0188 assessed as change in fluorescence threshold cycle at 1 ug/ml after 4 hrs by real-time PCR viability assay relative to control
Bacillus anthracis [9] = test: Antimicrobial activity against Bacillus anthracis A03768 assessed as change in fluorescence threshold cycle at 16 ug/ml after 4 hrs by real-time PCR viability assay relative to control
Bacillus anthracis [10] = test: Antimicrobial activity against Bacillus anthracis A0419 assessed as change in fluorescence threshold cycle at 0.06 ug/ml after 4 hrs by real-time PCR viability assay relative to control
Bacillus anthracis [11] = test: Antimicrobial activity against Bacillus anthracis A0465 assessed as change in fluorescence threshold cycle at 16 ug/ml after 4 hrs by real-time PCR viability assay relative to control
Bacillus anthracis [12] = test: Antimicrobial activity against Bacillus anthracis A0102 assessed as change in fluorescence threshold cycle at 0.12 ug/ml after 4 hrs by real-time PCR viability assay relative to control
Bacillus anthracis [13] = test: Antimicrobial activity against Bacillus anthracis A0193 assessed as change in fluorescence threshold cycle at 0.06 ug/ml after 4 hrs by real-time PCR viability assay relative to control
Bacillus anthracis [14] = test: Antimicrobial activity against Bacillus anthracis A0293 assessed as change in fluorescence threshold cycle at 0.25 ug/ml after 4 hrs by real-time PCR viability assay relative to control
Bacillus anthracis [15] = test: Antimicrobial activity against pXO1-positive and pXO2 negative Bacillus anthracis 34F2 assessed as change in fluorescence threshold cycle at 2 ug/ml after 4 hrs by real-time PCR viability assay relative to control
Bacillus anthracis [16] = test: Antimicrobial activity against pXO1-positive and pXO2 negative Bacillus anthracis 34F2 assessed as change in fluorescence threshold cycle at 4 ug/ml after 4 hrs by real-time PCR viability assay relative to control
Bacillus anthracis [17] = test: Antimicrobial activity against Bacillus anthracis A0264 assessed as change in fluorescence threshold cycle at 0.5 ug/ml after 4 hrs by real-time PCR viability assay relative to control
Bacillus anthracis [18] = test: Antimicrobial activity against Bacillus anthracis A0264 assessed as change in fluorescence threshold cycle at 0.12 ug/ml after 4 hrs by real-time PCR viability assay relative to control
Bacillus anthracis [19] = test: Antimicrobial activity against Bacillus anthracis A0419 assessed as change in fluorescence threshold cycle at 16 ug/ml after 4 hrs by real-time PCR viability assay relative to control
Bacillus anthracis [20] = test: Antimicrobial activity against Bacillus anthracis A0193 assessed as change in fluorescence threshold cycle at 0.5 ug/ml after 4 hrs by real-time PCR viability assay relative to control
Bacillus anthracis [21] = test: Antimicrobial activity against Bacillus anthracis A0419 assessed as change in fluorescence threshold cycle at 8 ug/ml after 4 hrs by real-time PCR viability assay relative to control
Bacillus anthracis [22] = test: Antimicrobial activity against Bacillus anthracis A0188 assessed as change in fluorescence threshold cycle at 0.06 ug/ml after 4 hrs by real-time PCR viability assay relative to control
Bacillus anthracis [23] = test: Antimicrobial activity against Bacillus anthracis A0188 assessed as change in fluorescence threshold cycle at 16 ug/ml after 4 hrs by real-time PCR viability assay relative to control
Bacillus anthracis [24] = test: Antimicrobial activity against pXO1-positive and pXO2 negative Bacillus anthracis 34F2 assessed as change in fluorescence threshold cycle at 16 ug/ml after 4 hrs by real-time PCR viability assay relative to control
Bacillus anthracis [25] = test: Antimicrobial activity against Bacillus anthracis A0293 assessed as change in fluorescence threshold cycle at 0.12 ug/ml after 4 hrs by real-time PCR viability assay relative to control
Bacillus anthracis [26] = test: Antimicrobial activity against Bacillus anthracis A0488 assessed as change in fluorescence threshold cycle at 8 ug/ml after 4 hrs by real-time PCR viability assay relative to control
Bacillus anthracis [27] = test: Antimicrobial activity against Bacillus anthracis A0462 assessed as change in fluorescence threshold cycle at 4 ug/ml after 4 hrs by real-time PCR viability assay relative to control
Bacillus anthracis [28] = test: Antimicrobial activity against Bacillus anthracis 240 assessed as change in fluorescence threshold cycle at 2 ug/ml after 4 hrs by real-time PCR viability assay relative to control

| SMILES | deltaCT (Bacillus anthracis [1]) | deltaCT (Bacillus anthracis [2]) | deltaCT (Bacillus anthracis [3]) | deltaCT (Bacillus anthracis [4]) | deltaCT (Bacillus anthracis [5]) | deltaCT (Bacillus anthracis [6]) | deltaCT (Bacillus anthracis [7]) | deltaCT (Bacillus anthracis [8]) | deltaCT (Bacillus anthracis [9]) | deltaCT (Bacillus anthracis [10]) | deltaCT (Bacillus anthracis [11]) | deltaCT (Bacillus anthracis [12]) | deltaCT (Bacillus anthracis [13]) | deltaCT (Bacillus anthracis [14]) | deltaCT (Bacillus anthracis [15]) | deltaCT (Bacillus anthracis [16]) | deltaCT (Bacillus anthracis [17]) | deltaCT (Bacillus anthracis [18]) | deltaCT (Bacillus anthracis [19]) | deltaCT (Bacillus anthracis [20]) | other results |
| --- | --- | --- | --- | --- | --- | --- | --- | --- | --- | --- | --- | --- | --- | --- | --- | --- | --- | --- | --- | --- | --- |
| O=C(O)c1cn(C2CC2)c2cc(N3CCNCC3)c(F)cc2c1=O [CIPROFLOXACIN] | 8.17 | 8.15 | 6.54 | 0.07 | 8.06 | 8.48 | 8.15 | 8.54 | 0.41 | 8.54 | 8.64 | 0.82 | 7.48 | 7.83 | 7.26 | 0.61 | 8.86 | 7.29 | 7.78 | 7.27 | deltaCT (Bacillus anthracis [21]): 0.22; deltaCT (Bacillus anthracis [22]): 8.17; deltaCT (Bacillus anthracis [23]): 7.67; deltaCT (Bacillus anthracis [24]): 6.86; deltaCT (Bacillus anthracis [25]): 2.13; deltaCT (Bacillus anthracis [26]): 0.41; deltaCT (Bacillus anthracis [27]): 7.36; deltaCT (Bacillus anthracis [28]): 8.89 |
| C[C@H]1c2cccc(O)c2C(=O)C2=C(O)[C@]3(O)C(=O)C(C(N)=O)=C(O)[C@@H](N(C)C)[C@@H]3[C@@H](O)[C@@H]21.O [DOXYCYCLINE] | 7.86 | 7.57 | 7.78 | 9.67 | 5.45 | 8.58 | 6.56 | 8.02 | 7.68 | 7.11 | 0.45 | 6.46 | 8.21 | 6.01 | 8.82 | 8.2 | 6.95 | 6.95 | 6.61 | 7.7 | deltaCT (Bacillus anthracis [21]): 8.44; deltaCT (Bacillus anthracis [22]): 7.22; deltaCT (Bacillus anthracis [23]): 7.24; deltaCT (Bacillus anthracis [24]): 0.65; deltaCT (Bacillus anthracis [25]): 7.53; deltaCT (Bacillus anthracis [26]): 7.96; deltaCT (Bacillus anthracis [27]): 8.11; deltaCT (Bacillus anthracis [28]): 6.37 |
